Mtb glucose medium: 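Phenotypic screen: M. tuberculosis growth, glucose 7H9 medium, 3 days; the read-out is not stated. Tested at 50 µM. The record gives no direction; compounds that gave an IC50 in retests scored well above the rest, so higher reads as more growth inhibition. Size under these conditions: about 69,000 compounds, about 760 of them at 50% or above in at least one test.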
Mtb cholesterol medium: 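Phenotypic screen: M. tuberculosis growth, cholesterol and DPPC medium, 4 days; the read-out is not stated. Concentration: 50 µM. The record gives no direction; compounds that gave an IC50 in retests scored well above the rest, so higher reads as more growth inhibition. About 69,000 compounds were tested under these conditions; 0.54% (about 370) showed 50% or more at least once.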

Results are given as percent effect.
The controls that fix the scale are not given in the record; negative values are as filed.
The entries come from a sample that favours strong results.
Two or more numbers in one place are separate tests of the same structure; such repeats can differ widely.

{"smiles": "COC[C@@H]1CCC[C@@]12CN(C(=O)N1CCCC1)CCO2", "Mtb glucose medium": 52.26}
{"smiles": "CCn1nc(C)c(CNC(=O)c2nnc3ccc(Cl)cc3n2)c1C", "Mtb glucose medium": 18.82, "Mtb cholesterol medium": -7.239}
{"smiles": "Cc1cc(-n2cncn2)ccc1C(=O)N(C)CC(F)(F)C(F)(F)F", "Mtb glucose medium": -1.356}
{"smiles": "Nc1nc(CC(=O)N2CCCC(CCc3cccc(F)c3)C2)cc(=O)[nH]1", "stereo": "centres unmarked", "Mtb glucose medium": -18.77}
{"smiles": "COc1cccc(S(=O)(=O)CCN2CCN(CC(F)F)CC2)c1", "Mtb cholesterol medium": 5.971}
{"smiles": "Cc1cc(S(=O)(=O)NC(C)(C)CN)c(F)cc1F.Cl", "Mtb glucose medium": 14.54}
{"smiles": "Cc1cccc(-c2nnc(C(C)N3CCn4c(C)nnc4C3)o2)c1", "stereo": "centres unmarked", "Mtb glucose medium": 69.39}
{"smiles": "Cc1ncc(CN(C)CC(O)c2ccc(Br)cc2)s1", "stereo": "centres unmarked", "Mtb cholesterol medium": 10.4}
{"smiles": "O=C(c1cnccn1)N1CCCC(c2cccc(-n3ccnc3)n2)C1", "stereo": "centres unmarked", "Mtb glucose medium": 6.336}
{"smiles": "Cc1c(Cl)c(C(F)(F)F)nn1C(C)C(=O)NC1CCN(C)CC1", "stereo": "centres unmarked", "Mtb glucose medium": 30.56}
{"smiles": "CN1CCN(c2ccccc2NC(=O)c2ccco2)CC1", "Mtb glucose medium": 39.54, "Mtb cholesterol medium": 13.13}
{"smiles": "Nc1cc(N2CCCC(CO)(Cc3ccccc3F)C2)nc(N)n1", "stereo": "centres unmarked", "Mtb glucose medium": 69.86}
{"smiles": "CC(CNC(=O)N1CCN(c2ncccn2)CC1)Cc1cccs1", "stereo": "centres unmarked", "Mtb glucose medium": 5.522, "Mtb cholesterol medium": -10.04}
{"smiles": "Cc1cc(C(=O)NCC2SCCc3ccccc32)no1", "stereo": "centres unmarked", "Mtb glucose medium": 56.27}
{"smiles": "COc1ccc(C(=O)NCc2ccco2)nn1", "Mtb glucose medium": 53.95}
{"smiles": "CC(CNC(=O)c1ccon1)Oc1cccc(Br)c1", "stereo": "centres unmarked", "Mtb cholesterol medium": "49.57 and 54.65"}
{"smiles": "N#Cc1cn[nH]c1NCc1cc(I)cc(I)c1O", "Mtb glucose medium": 33.95}
{"smiles": "CCCc1nc(NCCc2ccccc2)c2c(n1)c(C)nn2CC", "Mtb glucose medium": "47.74 and 24.83"}
{"smiles": "CC(C)[C@@H]1CN(C(=O)NCc2ccco2)C[C@H]1N(C)C", "Mtb cholesterol medium": 72.06}
{"smiles": "Cc1ccc(CN2CCC3(CCCC(=O)N3)CC2)s1.O=C(O)C(F)(F)F", "Mtb cholesterol medium": 10.31}
{"smiles": "c1ccc2sc(N3CCC4(CCCN4Cc4ncc[nH]4)CC3)nc2c1", "Mtb glucose medium": 28.15}
{"smiles": "CC(C)c1ocnc1C(=O)N1CC(=O)Nc2cccnc21", "Mtb glucose medium": "0.4741 and -8.9", "Mtb cholesterol medium": -1.342}
{"smiles": "CCc1noc(CSc2n[nH]c(-c3ccccn3)n2)n1", "Mtb glucose medium": "28.8 and 112.7"}
{"smiles": "CCc1cnc(N2CCN(Cc3ccncc3)CC2)s1", "Mtb glucose medium": 40.15}
{"smiles": "Cc1ccc2nc(-c3cnc(N)nc3)c(C)c(C(=O)N(C)C)c2c1", "Mtb cholesterol medium": 52.5}
{"smiles": "COCCC(=O)N1CCC2(CC1)CC(c1ccccc1)CN(C1CC1)C2", "stereo": "centres unmarked", "Mtb glucose medium": -26.86, "Mtb cholesterol medium": 7.913}
{"smiles": "O=C(NCC1(c2ccc(F)cc2)CCC1)N1CCC2(CCOCC2)C1", "Mtb glucose medium": "2.586 and -8.076"}
{"smiles": "COC(=O)c1ccc(N2CCC(N(C)c3ccccc3)CC2)nn1", "Mtb glucose medium": 116.1, "Mtb cholesterol medium": 110}
{"smiles": "COC(=O)c1cc(C)nc(N2CCN(Cc3ccn(C(C)C)c3)CC2)n1", "Mtb glucose medium": "-6.708 and -0.5383"}

Source: ChEMBL document CHEMBL3988442, “University of Dundee, Small-Polar-MMV Screening Library” (2021).